Compound potency records, mixed from different reports. Data source: NIAID ChemDB in PubChem.

Common to all: growth or infection tests; organism: HIV-1; cell line: MT-4; read by: MTT; endpoint: EC50

An empty or dashed field is not shown. ECn: concentration that inhibits the pathogen or its effect by n%. Conditions beyond the fields shown may differ between rows.

| smiles | changes | strain or isolate | value |
|---|---|---|---|
| O=C(CC1Nc2ccccc2S(=O)(=O)n2cccc21)Oc1ccc(Cl)cc1 |  | IIIB | 124 µM |
| COc1ccc(/C=N/n2sc3ccc(C)cc3c2=O)cc1 | EFV-resistant (K103 V179D P225H) |  | >55 µM |
| CCOC(=O)c1ccc(CN2CCC(Nc3nc(Oc4c(C)cc(/C=C/C#N)cc4C)c4sccc4n3)CC2)cc1 | NNRTI-resistant (RT F227L V106A) | IIIB | 0.0852 µM |
| CCOC(=O)CC1Nc2ccccc2S(=O)(=O)n2cccc21 |  | IIIB | >312 µM |
| O=c1c2ccccc2sn1/N=C/c1cccc([N+](=O)[O-])c1 |  |  | 36 µM |
| CCc1c(C(=O)c2cccc(C#N)c2)n(Cc2cccc(C#N)c2)c(=O)[nH]c1=O | EFV | IIIB | >100 µM |
| C=C(CC[C@](C)(O)[C@H]1C(=O)C[C@H]2[C@@H]3C(=O)C[C@H]4C[C@H](O)CC[C@]4(C)[C@H]3CC[C@@]21C)C(C)C |  | NL4-3 | 3.02 µM |
| O=c1c2ccccc2sn1/N=C/c1ccc([N+](=O)[O-])cc1[N+](=O)[O-] | Y181C |  | >100 µM |
| Cc1cnc(Nc2ccc(C#N)cc2)nc1C(C)(O)c1ccc(F)cc1 |  | IRLL98 | 3.549 µM |
| CCc1c(Cc2cc(C)cc(C)c2)n(COCC#Cc2ccc(O[Si](c3ccccc3)(c3ccccc3)C(C)(C)C)cc2)c(=O)[nH]c1=O | WT | IIIB | 1.7 µM |
| Cc1cc(C#N)cc(C)c1Oc1nc(NC2CCC(NCc3ccc([N+](=O)[O-])cc3)CC2)nc2ccsc12 | NNRTI-resistant (RT F227L V106A) | IIIB | 0.646 µM |
| CCc1c(Cc2cc(C)cc(C)c2)n(COCC#Cc2ccc(C=O)cc2)c(=O)[nH]c1=O | EFV-resistant (K103R V179D P225H) | IIIB | 14 µM |
| C=CCOCn1c(C(F)c2cccc(C#N)c2)c(CC)c(=O)[nH]c1=O | Y181C | IIIB | 1.5 µM |
| CCc1c(Cc2cc(C)cc(C)c2)n(COCC#Cc2ccc(N)cc2)c(=O)[nH]c1=O | K103N + Y181C | IIIB | 2.4 µM |
| Cc1ccc2sn(/N=C/c3ccc(F)cc3)c(=O)c2c1 |  |  | >15 µM |
| Nc1ccn([C@H]2CC[C@@H](CO)O2)c(=O)n1 | Y181C |  | 0.331 µM |
| CCc1c(Cc2cc(C)cc(C)c2)n(COC/C(=C/Sc2ccccc2)Sc2ccccc2)c(=O)[nH]c1=O | EFV-resistant (K103R V179D P225H) | IIIB | >60 µM |
| Cc1cc(C(C)(O)c2ccc(F)cc2)nc(Nc2ccc(C#N)cc2)n1 |  | IRLL98 | >61.5 µM |
| Cc1ccc2sn(/N=C/c3ccc([N+](=O)[O-])cc3)c(=O)c2c1 | Y181C |  | >100 µM |
| O=C(CC1Nc2ccccc2S(=O)(=O)n2cccc21)Nc1ccc(Cl)cc1 |  | IIIB | >12.5 µM |
| Cc1cn([C@H]2C[C@H](N=[N+]=[N-])[C@@H](CO)O2)c(=O)[nH]c1=O |  | Clinical isolate | 0.0098 µg/mL |
| Cc1ccccc1CN1CCC(Nc2nc(Oc3c(C)cc(/C=C/C#N)cc3C)c3sccc3n2)CC1 | NNRTI-resistant (RT Y181C) | IIIB | 0.0857 µM |
| CC(C)[C@H](C)CC[C@](C)(O)[C@H]1C(=O)C[C@H]2[C@@H]3C(=O)C=C4C[C@@H](O)CC[C@]4(C)[C@H]3CC[C@@]21C | K103N RI-resistant | NL4-3 | 0.08663 µM |
| CCOC(=O)C1c2cccn2N(C)c2ccccc2N1C(=O)CCl |  | IIIB | >6.3 µM |
| CCc1c(Cc2cc(C)cc(C)c2)n(COCC#Cc2ccc(O)cc2)c(=O)[nH]c1=O | WT | IIIB | 0.008 µM |
| Cc1cc(/C=C/C#N)cc(C)c1Oc1nc(NC2CCN(Cc3cccc(F)c3)CC2)nc2ccsc12 | NNRTI-resistant (RT Y181C) | IIIB | 0.0345 µM |
| Cc1ccc2sn(/N=C/c3ccc(O)cc3)c(=O)c2c1 | EFV-resistant (K103 V179D P225H) |  | >23 µM |
| CCCOCn1c(C(F)c2cccc(C#N)c2)c(CC)c(=O)[nH]c1=O | EFV | IIIB | >100 µM |
| CCc1c(Cc2cc(C)cc(C)c2)n(COCC#Cc2cccc(O[Si](c3ccccc3)(c3ccccc3)C(C)(C)C)c2)c(=O)[nH]c1=O | Y181C | IIIB | 7.6 µM |
| CCOC(=O)C1c2cccn2S(=O)(=O)c2ccccc2N1C(=O)CBr |  | IIIB | >10.7 µM |
| Cc1ccc2sn(/N=C/c3ccccc3)c(=O)c2c1 |  |  | >33 µM |
| Cc1cc(C#N)cc(C)c1Oc1nc(NC2CCC(NCc3cccc(C(F)(F)F)c3)CC2)nc2ccsc12 | NNRTI-resistant (RT F227L V106A) | IIIB | >707 µM |
| O=c1c2ccccc2sn1/N=C/c1ccc(Cl)cc1 |  |  | >26 µM |
| CCc1c(Cc2ccccc2C)n(COCC#CC2c3ccccc3-c3ccccc32)c(=O)[nH]c1=O | K103N + Y181C | IIIB | >50 µM |
| Cc1cc(/C=C/C#N)cc(C)c1Oc1nc(NC2CCN(Cc3cccc(Cl)c3)CC2)nc2ccsc12 | NNRTI-resistant (RT E138K) | IIIB | 0.131 µM |
| O=C1CC2c3cccn3S(=O)(=O)c3ccccc3N12 |  | IIIB | 18 µM |